Results of unrelated studies side by side (data: NIAID ChemDB).

All rows: whole-cell or culture tests; species: Mycobacterium tuberculosis

ECn: concentration that inhibits the pathogen or its effect by n%. MIC bound comes from a single tested concentration. Neighbouring rows are from separate reports. Percent inhibition refers to the dose given; in toxicity tests it is the harm to the cells. MIC50, MIC90 and the like: level of inhibition, or share of isolates inhibited. An empty or dashed field is not shown.

SMILES	dose	setting	changes	strain or isolate	endpoint	method	result
S=C(Nc1ccc(Cl)cc1)c1ccc(Cl)cc1				H37Rv	MIC		125 µM
O=C1OC(c2ccccc2)=N/C1=C\c1c(O)cc(O)cc1O	12.5 µg/mL			H37Rv	inhibition	BACTEC	16%
CCn1cc(C(=O)O)c(=O)c2cc(F)c(N3CCNCC3)cc21				22 isolates	MIC90		4 µg/mL
Cc1ccccc1-c1nnc(SCC(=O)c2ccccc2)o1	6.25 µg/mL			H37Rv	inhibition	BACTEC	19%
COc1ccc2c(c1)c1c(C)c3cnccc3c(C)c1n2CCCN1C(=O)c2ccccc2C1=O	6.25 µg/mL			H37Rv	inhibition	resazurin	99%
COc1cc(Cc2cnc(N)nc2N)ccc1OCCC(C)C				H37Rv	MIC		101 µM
CCC(/C(=N\NC(=O)C[N+](C)(C)C)c1ccccc1)C1OC(=O)c2ccccc21.[Cl-]	12.5 µg/mL			H37Rv	inhibition	BACTEC	0%
C1=C2CCCC/C=C\C=C\CCN3CC[C@@H]4[C@H](CCCCCC/C=C\C=C/CCN(C2)C[C@H]14)C3				H37Rv (STR-resistant)	MIC		6.25 µg/mL
C[C@@H]1CN(c2c(F)c(N)c3c(=O)c(C(=O)O)cn(C4CC4)c3c2F)C[C@H](C)N1				Isolate 11	MIC		0.25 µg/mL
CC(C)(C)C1CCc2onc(C(=O)Nc3cnn(Cc4ccc(C(=O)NCc5ccccc5)cc4)c3)c2C1				Rv3602c	MIC		>128 µM
NNC(=O)c1ccncc1				H37Rv	MIC	resazurin	0.66 µM
Nc1ncc(Cc2ccc(OCCCc3ccccc3)cc2)c(N)n1				H37Rv	MIC		12 µM
CC1COc2c(N3CCN(C)CC3)c(F)cc3c(=O)c(C(=O)O)cn1c23				SMI 10	MIC	BACTEC	16 µg/mL
N/C(=N/O)c1cncc(-n2cncn2)n1				Isoniazid-resistant	MIC		500 µg/mL
Cc1ccc(NC(=S)c2ccc(C)cc2)cc1				H37Rv	MIC		250 µM
CC1COc2c(N3CCN(C)CC3)c(F)cc3c(=O)c(C(=O)O)cn1c23				18 isolates	MIC50		1 µg/mL
N#Cc1nc2ccccc2nc1Cl				H37Rv	EC50		<12.5 µg/mL
CC[C@H]1OC(=O)[C@H](C)[C@@H](O[C@H]2C[C@@](C)(OC)[C@@H](O)[C@H](C)O2)[C@H](C)[C@@H](O[C@@H]2O[C@H](C)C[C@H](N(C)C)[C@H]2O)[C@](C)(O)C[C@@H](C)/C(=N\OCOCCOC)[C@H](C)[C@@H](O)[C@]1(C)O				188 strains	MIC50		1 µg/mL
CC(C)(C)C1CCc2onc(C(=O)Nc3cnn(Cc4ccc(C(=O)NCCc5ccccc5)cc4)c3)c2C1				Rv3602c	MIC		>128 µM
NC(=O)NC1OC(COC(=O)c2ccccc2)C(OC(=O)c2ccccc2)C1OC(=O)c1ccccc1				H37Rv	MIC bound	BACTEC	>12.5 µg/mL
CCOc1ccc2cc(-n3nncc3COc3nc(-c4ccccc4)sc3C=O)c(=O)oc2c1				H37Rv	MIC	resazurin	26.34 µM
Oc1ccccc1C(=S)NCc1ccc(F)cc1				My 331/88	MIC		0.5 µg/mL
CC1NC(C(=O)O)Cc2cc(O)c(O)cc21				H37Rv	MIC	BACTEC	≥12.8 µg/mL
CC(C)(C)C1CCc2onc(C(=O)Nc3cnn(Cc4ccc(F)cc4F)c3)c2C1				Rv3602c	MIC		>128 µM
CO[C@H]1/C=C/O[C@@]2(C)Oc3c(C)c(O)c4c(O)c(c(/C=N/N5CCN(C)CC5)c(O)c4c3C2=O)NC(=O)/C(C)=C\C=C\[C@H](C)[C@H](O)[C@@H](C)[C@@H](O)[C@@H](C)[C@H](OC(C)=O)[C@@H]1C				Isolate 15	MIC		<0.03 µg/mL
CC(C)(C)OC(=O)c1ccc(Cn2cc(NC(=O)c3noc4c3CC(C(C)(C)C)CC4)cn2)cc1				Rv3602c	MIC	resazurin	>128 µM
COc1cc(-c2nnc(SCC(=O)c3ccc(-c4ccccc4)cc3)o2)cc(OC)c1OC	6.25 µg/mL			H37Rv	inhibition	BACTEC	37%
COc1cc(Cc2cnc(/N=C3\C(=O)N(CN4CCN(c5ccccn5)CC4)c4ccc(C)cc43)nc2N)cc(OC)c1OC				H37Rv	MIC		25 µg/mL
N#Cc1cncc(-n2cncn2)n1				H37Rv	MIC		250 µg/mL
Cc1c(OCC(F)(F)F)ccnc1CSc1nc2ccccc2[nH]1				H37Rv	MIC90	resazurin	1.13 µM
COc1cc(Cc2cnc(/N=C3\C(=O)N(CN4CCCC4)c4ccc(C)cc43)nc2N)cc(OC)c1OC				H37Rv	MIC		19 µg/mL
CCN(CC)c1nc2c(s1)c1c(O)c3c(O)c(C)c4c(c32)C(=O)[C@@](C)(O/C=C/[C@H](OC)[C@@H](C)[C@@H](OC(C)=O)[C@H](C)[C@H](O)[C@H](C)[C@@H](O)[C@@H](C)/C=C/C=C(/C)C(=O)N1)O4				1620-4	MBC		0.5 µg/mL
Nc1ccc2cc(-n3nncc3COc3nc(-c4cccnc4)sc3C(=O)O)c(=O)oc2c1				H37Rv	MIC	resazurin	27.03 µM
CN(N=O)C(=O)NC1C(O)C(CO)OC1n1ccc(=O)[nH]c1=O	12.5 µg/mL			H37Rv	inhibition	BACTEC	0%
NNC(=O)c1ccncc1			INH resistant katG S315T		MIC	fluorescence	>10 µM
CC1CCCCN1c1cncc(C(N)=S)n1				H37Rv	MIC		250 µg/mL
CC(C)(C)C1CCc2onc(C(=O)Nc3cnn(Cc4ccccc4)c3)c2C1				Rv3602c	MIC		>128 µM
COc1ccc(C(=S)Nc2ccc(C3CCCCC3)cc2)cc1				H37Rv	MIC		31 µM
CCCCN1C(=O)C(=O)N(Cc2ccco2)C1=O	12.5 µg/mL			H37Rv	inhibition	BACTEC	7%
S=C(Nc1ccccc1)c1ccccc1				H37Rv	MIC		125 µM
CC1(Cl)C(=O)NN=C1c1ccc([N+](=O)[O-])cc1				H37Rv	MIC bound	BACTEC	>12.5 µg/mL
CN[C@@H]1[C@H](O[C@H]2[C@H](O[C@H]3[C@H](O)[C@@H](O)[C@H](N=C(N)N)[C@@H](O)[C@@H]3N=C(N)N)O[C@@H](C)[C@]2(O)C=O)O[C@@H](CO)[C@H](O)[C@H]1O				Isolate 12	MIC		64 µg/mL
COc1cc(-c2nnc(SC)o2)cc(OC)c1OC	6.25 µg/mL			H37Rv	inhibition	BACTEC	20%
Cc1ccc(NC(=O)c2ccc(Cl)cc2Cl)cc1Cl				H37Rv	MIC bound	BACTEC	>12.5 µg/mL
COc1ccc(Cc2noc(NC(=O)c3noc4c3CC(C(C)(C)C)CC4)c2C(N)=O)cc1				Rv3602c	MIC		>128 µM
CCCCCCCCCCCCCCCCCCCCOP(=O)(O)C[C@@H]1O[C@H](CO)[C@@H](O)[C@@H]1O				H37Rv	MIC		18 µM
Nc1ccc2cc(-n3nncc3COc3nc(-c4cccnc4)sc3C=O)c(=O)oc2c1				H37Rv	MIC	resazurin	13.99 µM
CC1COc2c(N3CCN(C)CC3)c(F)cc3c(=O)c(C(=O)O)cn1c23				ATCC 27294	MIC	resazurin	0.6 µM
COc1ccc(C2(CSc3nnc(-c4ccc(O)cc4)o3)OCCO2)cc1OC	6.25 µg/mL			H37Rv	inhibition	BACTEC	3%
CC1COc2c(N3CCN(C)CC3)c(F)cc3c(=O)c(C(=O)O)cn1c23		clinical isolate		Clinical isolates	MIC		0.25 µg/mL
N#Cc1nc2cc(Cl)ccc2nc1Cl				H37Rv	MIC		>12.5 µg/mL
CCCCOc1ccc(-c2c(COC(=O)NC)c(COC(=O)NC)c(C)n2C)cc1	6.25 µg/mL			H37Rv	inhibition	resazurin	10%
CCCCCCCCCCCOc1ccc(Cc2cnc(N)nc2N)cc1OC				H37Rv	MIC		20 µM
CO[C@H]1/C=C/O[C@@]2(C)Oc3c(C)c(O)c4c(O)c(c(/C=N/N5CCN(C)CC5)c(O)c4c3C2=O)NC(=O)/C(C)=C\C=C\[C@H](C)[C@H](O)[C@@H](C)[C@@H](O)[C@@H](C)[C@H](OC(C)=O)[C@@H]1C				H37Rv	MIC	resazurin	2 µM
c1ccc(-c2nnc(SCC3(c4ccccc4)OCCO3)o2)cc1	6.25 µg/mL			H37Rv	inhibition	BACTEC	82%
CC(CCC1=NC(C)(C)CO1)C1CCC2C3C(O)CC4CC(O)CCC4(C)C3CCC12C				H37Rv	MIC bound	BACTEC	>12.5 µg/mL
COc1cc(Cc2cnc(/N=C3\C(=O)N(CN4CCNCC4)c4ccc(C)cc43)nc2N)cc(OC)c1OC				H37Rv	MIC		24 µg/mL
O=C(CSc1nnc(-c2ccccc2)o1)c1ccc(F)cc1	6.25 µg/mL			H37Rv	inhibition	BACTEC	58%
Oc1ccccc1C(=S)NCc1cccc(Cl)c1				My 331/88	MIC		1 µg/mL
CSc1nnc(-c2ccccc2O)o1	6.25 µg/mL			H37Rv	inhibition	BACTEC	30%
COc1ccc(NC(=S)c2ccccc2)cc1				H37Rv	MIC		125 µM
O=c1ccc2ncccc2n1CCN1CCC(NCc2cc(Cl)c(Cl)cn2)CC1				ATCC 27294	MIC	resazurin	0.04 µM
CC1=C(C)C(=O)c2nn(C)nc2C1=O				H37Rv	MIC bound	BACTEC	≤12.5 µg/mL
S=C(Nc1ccc(Cl)cc1)c1cccc(Br)c1				H37Rv	MIC		31 µM
CCCCCCOc1ccc(Cc2cnc(N)nc2N)cc1OC				H37Rv	MIC		24.2 µM
CO[C@H]1/C=C/O[C@@]2(C)Oc3c(C)c(O)c4c(=O)c(c5oc6cc(N7CCN(CC(C)C)CC7)cc(=O)c6nc5c4c3=C2O)NC(=O)/C(C)=C\C=C\[C@H](C)[C@H](O)[C@@H](C)[C@@H](O)[C@@H](C)[C@H](OC(C)=O)[C@@H]1C				2219 (rifampicin-resistant)	MIC		2 µg/mL
Oc1cc(Br)cc(Br)c1C(=S)NCc1ccc(C(F)(F)F)cc1				My 331/88	MIC		32 µg/mL
COc1cc(Cc2cnc(/N=C3\C(=O)N(CN4CCN(c5c(OC)cc6c(c5F)c(=O)c(C(=O)O)cn6C5CC5)CC4C)c4ccc(C)cc43)nc2N)cc(OC)c1OC				H37Rv	MIC		100 µg/mL
CC(C)(C)CC(C)(O)CN(CC(C)(O)CC(C)(C)C)C(=S)S				PAS-R	MIC		6.3 µg/mL
Oc1cc(Cl)ccc1C(=S)NCc1ccc(F)cc1				My 331/88	MIC		1 µg/mL
Cn1c2ccccc2c2nn3cnnc3nc21				H37Rv	MIC bound	resazurin	>6.25 µg/mL
S=C(Nc1ccc(Br)cc1)c1ccc(Cl)cc1				H37Rv	MIC		250 µM
CCCCCCCCCOc1ccc(Cc2cnc(N)nc2N)cc1OC				H37Rv	MIC		10.7 µM
C=C1C(=O)O[C@@H]2/C=C(/CO)CC/C=C(/CO)C[C@@H](OC(=O)C(C)C)[C@@H]12	12.5 µg/mL			H37Rv	inhibition	BACTEC	-3%
CC1CCCCN1c1cncc(C(N)=O)n1				Ethionamide-resistant	MIC		500 µg/mL
O=c1cc(CO)oc2c3c(cc(O)c12)OCC(COC1OC(CO)C(O)C(O)C1O)=CC3	12.5 µg/mL			H37Rv	inhibition	BACTEC	7%
COc1ccc(C(=S)Nc2ccc(C)cc2)cc1				H37Rv	MIC		250 µM
CN(C)c1ccc(P(=O)(O)c2ccc(N(C)C)cc2)cc1	12.5 µg/mL			H37Rv	inhibition	BACTEC	26%
COc1cc(-c2nnc(SCC3(c4ccc(F)cc4)OCCO3)o2)cc(OC)c1OC	6.25 µg/mL			H37Rv	inhibition	BACTEC	6%
Cn1cc(NC(=O)c2cc(NC(=O)CN=C(N)N)cn2C)cc1C(=O)NCCC(=N)N				H37Rv	MIC bound	resazurin	<6.25 µg/mL
CC(C)(C)C1CCc2onc(C(=O)O)c2C1				Rv3602c	MIC	resazurin	>128 µM
NCCCCC(NC(=O)OCc1ccccc1)C(=O)NC(CCCCN)C(=O)NC(CCCCN)C(=O)NC(Cc1c[nH]c2ccccc12)C(=O)OCc1ccccc1				H37Rv	MIC bound	BACTEC	>12.5 µg/mL
S=C(Nc1ccc(Br)cc1)c1cccc(Br)c1				H37Rv	MIC		31 µM
CC(C)N=c1cc2n(-c3ccc(Cl)cc3)c3ccccc3nc-2cc1Nc1ccc(Cl)cc1				CS-R	MIC		≤0.1 µg/mL
COC(=O)c1sc(-c2ccccc2)nc1OCc1cnnn1-c1cc2ccc(N)cc2oc1=O				H37Rv	MIC	resazurin	13.15 µM

Again, the opening 5 rows:

SMILES | dose | setting | changes | strain or isolate | endpoint | method | result
S=C(Nc1ccc(Cl)cc1)c1ccc(Cl)cc1 |  |  |  | H37Rv | MIC |  | 125 µM
O=C1OC(c2ccccc2)=N/C1=C\c1c(O)cc(O)cc1O | 12.5 µg/mL |  |  | H37Rv | inhibition | BACTEC | 16%
CCn1cc(C(=O)O)c(=O)c2cc(F)c(N3CCNCC3)cc21 |  |  |  | 22 isolates | MIC90 |  | 4 µg/mL
Cc1ccccc1-c1nnc(SCC(=O)c2ccccc2)o1 | 6.25 µg/mL |  |  | H37Rv | inhibition | BACTEC | 19%
COc1ccc2c(c1)c1c(C)c3cnccc3c(C)c1n2CCCN1C(=O)c2ccccc2C1=O | 6.25 µg/mL |  |  | H37Rv | inhibition | resazurin | 99%